Biological target: T1, ribonuclease B (RNase B), bovine (bovine, UniProt P61823 27-150, N-linked high-mannose (Man5) oligosaccharides; biotinylated with Sulfo-NHS-LC-Biotin)
T1 sequence (looked up): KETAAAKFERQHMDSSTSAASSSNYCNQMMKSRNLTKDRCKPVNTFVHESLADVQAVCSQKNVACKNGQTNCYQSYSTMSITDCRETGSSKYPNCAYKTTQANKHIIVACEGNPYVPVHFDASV
Assay: BLI; fimbriae on RNase B probe in the presence of 4 µM Fab824; 1:1 model

B1: FimH^FocH (other)
chain: FACKTANGTAIPIGGGSANVYVNLAPVVNVGQNLVVDLSTQIFCHNDYPETITDYVTLQRGSAYGGVLSNFSGTVKYSGSSYPFPTTSETPRVVYNSRTDKPWPVALYLTPVSSAGGVAIKAGSLIAVLILRQTNNYNSDDFQFVWNIYANNDVVVPTGGCDVSARDVTVTLPDYPGSVPIPLTVRCDQTQSVSYTLSGSVADAGNSIFTNTASFSPAQGVGVQLTRNGTIIPANNTVSLGAVGTSAVSLGLTANYARTGGQVTAGNVQSIIGVTFVYQ
notes: also called LD^A27V-PD^FocH
Question: How did the Kd turn out when B1 was run?
Answer: 66.6 nM

Question: And the koff?
Answer: 0.00047 s⁻¹

Question: And the kon?
Answer: 7100 M⁻¹ s⁻¹

Source: US20240165214A1 (University of Washington, published 2024)
